# Deep mutational scan of the Zika virus protease

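Libraries of single mutants were passaged as virus pools on Huh-7.5 cells. Deep sequencing gave the change in frequency of each mutant relative to wild type, averaged over three replicate libraries (two for positions 207-308). The study looked for pockets that tolerate few changes, as a guide for inhibitor design.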

Protein: NS2B and the protease part of NS3 of Zika virus strain MR766. Positions count along the chain below; NS2B spans 2-131 and NS3 starts at 132.
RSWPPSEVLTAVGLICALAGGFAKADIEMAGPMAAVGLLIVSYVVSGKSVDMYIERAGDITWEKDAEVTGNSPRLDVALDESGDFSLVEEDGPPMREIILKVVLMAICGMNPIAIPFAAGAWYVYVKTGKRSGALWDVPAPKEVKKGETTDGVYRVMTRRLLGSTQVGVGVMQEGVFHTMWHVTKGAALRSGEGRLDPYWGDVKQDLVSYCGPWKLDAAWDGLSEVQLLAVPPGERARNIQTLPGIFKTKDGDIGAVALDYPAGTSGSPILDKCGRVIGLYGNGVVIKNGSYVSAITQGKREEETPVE

Scale: log2 effect, wild type = 0; the lower, the more harmful to the virus. Each entry names the wild-type residue, its position and the residue put in its place. An asterisk is a stop codon; stop codons read about -7, near the floor of the assay. Positions 1-103, 104-206 and 207-308 were made and measured as separate libraries. Values above 0 are not proof of better growth: six high scorers were tested one by one, five grew less well than wild type and one about as well. The authors count -1 or higher as tolerated. Position 1 is the last residue of NS2A.

mutation	log2 effect
R1V	-8.35
S2F	-6.40
V12P	-6.72
A17E	-3.29
L18M	-1.23
A23C	0.35
A34H	-5.84
V36A	-1.47
V36F	-4.49
I40N	-5.33
V41L	-2.31
S46K	-5.60
D51Y	-3.47
M52I	-2.81
R56G	-6.18
I60H	-6.51
I60L	-3.91
W62I	-5.97
K64N	0.35
A66Y	-6.02
N71K	-6.77
S72F	-6.01
S72M	-5.95
R74Q	-1.00
A78C	-0.21
E81V	-7.08
F85*	-6.74
S86T	-0.27
V88K	-5.02
L100C	-2.48
L100D	-5.26
C108F	-6.57
G109A	-6.58
G109K	-4.15
Y125V	-2.98
V126N	-1.46
V126T	-0.53
K127D	-4.39
K127G	-0.81
A134Y	-4.81
V138T	-4.65
E143G	-2.61
K145T	-1.06
T149Q	-2.88
T150M	-2.12
D151C	-1.40
V153N	-4.96
Q166L	-7.34
Q166P	-7.03
T179H	-5.78
T179M	-5.37
M180E	-4.48
W181C	-4.16
V183G	-7.08
G186T	-5.63
R190P	-5.93
D202P	-6.33
C211P	-6.75
K215T	-4.90
K215V	-5.12
L223H	-0.23
A230*	-5.95
I254G	-6.81
G255M	-6.24
L259E	-5.16
D260K	-4.14
P262K	-3.74
A263T	-6.44
P269E	-4.60
I270S	-5.68
D272*	-5.11
K273G	-2.04
C274P	-5.31
N289Q	-4.55
G290W	-5.65
V293F	-4.64
K300*	-7.35
E302S	0.00
E304N	-1.08

From the data files of Ni et al. 2025, doi:10.1038/s41467-025-63602-z.